Source: patent publication US20020013478A1, “Calanolide analogues and methods of their use” (Sarawak Medichem Pharmaceuticals,Inc., priority 1994, published 2002)

Columns and labels:
EBV = EBV assay: superinfection of Raji or Daudi cells with P3HR-1, immunofluorescence for EA and VCA; type: cell-based, Epstein-Barr virus; settings: IC50/EC50
Source text: There are two prototypes of infectious EBV. One is exemplified by the virus derived from supernatant fluids of the P3HR-1cell line. This cell line produces nontransforming virus that causes the production of early antigen (EA) after primary infection or superinfection of B cell lines. The other prototype is exemplified by the B-95-8 virus. This virus immortalized cord blood lymphocytes and induced tumors in marmosets.
The virus used in our assays is P3HR-1.
Ramos is an exceptional B cell line derived from Burkitt's lymphoma tumor but containing no detectable EBV genome copies and is EBNA negative. Ramos/AW was obtained by in vitro infection of Ramos with the P3HR-1 virus and contains one resident EBV genome copy/cell. Raji is a Burkitt's lymphoma cell line containing 60 EBV genomes/cell, and will be the primary cell used for screening antiviral activity against EBV EA expression. Daudi is a low level producer that contains 152 EBV genome copies/cell. It spontaneously expresses EBV EA in 0.25%-0.5% of the cells. It will be used in follow-up studies to confirm activity. These cell lines respond to superinfection by EBV by expressing EA(D), EA(R), and VCA. All cell lines are maintained in RPMI-1640 medium supplemented by 10% FCS, L-glutamine and 100 μg/mL gentamicin. The cultures are fed twice weekly and the cell concentration adjusted to 3×10^5/mL. The cells are kept at 37° C. in a humidified atmosphere with 5% CO2.
Cells are infected with the P3HR-1 strain of EBV and the drugs to be tested are added after adsorption (45 minutes at 37° C.) and washing of the cell cultures. The cultures are incubated for two days in complete medium to allow viral gene expression. Following the 48 hr incubation period, the number of cells of each sample are counted and smears made. Monoclonal antibodies to the different EA components and VCA are then added to the cells incubated and washed. This is followed by a fluorescein conjugated rabbit anti-mouse Ig antibody; and the number of fluorescence positive cells in the smears are counted. The total number of cells in the cultures positive for EA or VCA are then calculated and compared.

HCMV = HCMV semi-automated CPE-inhibition assay in human foreskin fibroblast cells; type: cell-based, human cytomegalovirus; settings: IC50/EC50
VZV = VZV plaque reduction assay in human foreskin fibroblast cells; type: cell-based, varicella zoster virus; settings: IC50/EC50
Protocol: Two days prior to use, HFF cells are plated into six-well plates and incubated at 37° C. with 5% CO2 and 90% humidity. On the date of assay, the drug is made up at twice the desired concentration in 2x MEM and then serially diluted 1:5 in 2x MEM using six concentrations of drug. The initial starting concentration is usually 200 gg/mL down to 0.06 μg/mL. The virus to be used is diluted in MEM containing 10% FBS to a desired concentration which will give 20-30 plaques per well. The media is then aspirated from the wells and 0.2 mL of virus is added to each well in duplicate with 0.2 mL of media being added to drug toxicity wells. The plates are then incubated for one hour with shaking every fifteen minutes. After the incubation period, an equal amount of 1% agarose was added to an equal volume of each drug dilution. This will give final drug concentrations beginning with 100 μg/mL and ending with 0.03 μg/mL and a final agarose overlay concentration of 0.5%. The drug agarose mixture is applied to each well in 2 mL volume and the plates then incubated for three days, after which the cells were stained with a 1.5% solution of neutral red. At the end of 4-6hr incubation period, the stain is aspirated, and plaques counted using a stereomicroscope at lOx magnification.
The procedure is essentially the same as for the HSV plaque assay described above with two exceptions:
1. After addition of the drug, the plates are incubated for ten days.
2. On days three and six, an additional 1 mL overlay with equal amounts of 2x MEM and 1% agarose are added.

HBV = HBV replication in cultures of 2.2.15 cells, extracellular HBV virion DNA (primary assay); settings: IC50/EC50
HIV-1 = settings: IC50/EC50
[1] = system: HCMV isolates Towne, AD169, E. Mann, Coffman, C9208; test: Anti-CMV plaque reduction assay against various laboratory and clinical isolates (Example 40); type: cell-based, human cytomegalovirus; settings: MTC/EC50
Protocol: On the date of assay, the drug is made up at twice the desired concentration in 2x MEM and then serially diluted 1:5 in 2x MEM using six concentrations of drug. The initial starting concentration is usually 200 gg/mL down to 0.06 μg/mL. […] The media is then aspirated from the wells and 0.2 mL of virus is added to each well in duplicate with 0.2 mL of media being added to drug toxicity wells. The plates are then incubated for one hour with shaking every fifteen minutes. […] This will give final drug concentrations beginning with 100 μg/mL and ending with 0.03 μg/mL and a final agarose overlay concentration of 0.5%. The drug agarose mixture is applied to each well in 2 mL volume and the plates then incubated for three days, after which the cells were stained with a 1.5% solution of neutral red. At the end of 4-6hr incubation period, the stain is aspirated, and plaques counted using a stereomicroscope at lOx magnification. The procedure again is nearly the same as for HSV with a few minor changes. […] The assay is incubated for 14 days with the additional 1 mL overlays being applied on days four and eight. The procedure for the liquid overlay plaque assay is similar to that using the agarose overlay. The procedure for adding the virus is the same as for the regular plaque assay. The drugs are made up in a concentration to be used in MEM with 2% FBS. The drugs are not made up at 2x concentration as in the previous assays but are made up at the desired concentration. For HSV-1 and HSV-2 assays, an antibody preparation obtained from Baxter Health Care Corporation is diluted 1:500 and added to the media that the drug is diluted in. For CMV and VZV, no antibody in the overlay is utilized. For the CMV assay, additional medium without new drug is added on day five and allowed to incubate for a total of 10 days. For VZV, additional medium is added on day five and incubated for a total of 10 days. At the end of the incubation period for all of the assays, 2 mL of 1:10 dilution of stock neutral is added to each well incubated for six hours. The liquid is then aspirated off and plaques enumerated using a stereomicroscope. Five calanolide analogues, prepared as described above, were further evaluated for their anti-HCMV activity in plaque reduction assay against various laboratory and clinical isolates (Towne, AD 169, E. Mann, Coffinan, and […]).

| Compound | EBV SI (EBV) | HCMV SI (HCMV) | VZV SI (VZV) | HBV SI (HBV) | TI (HIV-1) | also measured |
| --- | --- | --- | --- | --- | --- | --- |
| CCCc1cc(=O)oc2c3c(c4c(c12)OC(C)(C)C=C4)OC(CC)C(C)C3=O (racemic) [(±)-15c, (±)-10,11-trans-10,11-Dihydro-10-ethyl-4-propyl-6,6,11-trimethyl-2H,6H,12H-benzo[1,2-b:3,4-b ″]tripyran-2,12-dione] | <1 | <4 | <3 | <15 | – | – |
| CCCc1cc(=O)oc2c1c1c(c3oc(C)c(C)c(=O)c32)C=CC(C)(C)O1 [Compound 5, 6,6,10,11-tetramethyl-4-propyl-2H,6H,12H-benzo[1,2-b:3,4-b′:5,6-b″]tripyran-2,12-dione] | <1 | <1 | <3 | <209 | – | – |
| CCCc1cc(=O)oc2c3c(c4c(c12)OC(C)(C)C=C4)OC(C)C(C)C3=O (single isomer, unassigned; (-)) [(−)-7a] | – | <3 | – | <8.6 | – | – |
| CCCc1cc(=O)oc2c3c(c4c(c12)OC(C)(C)C=C4)OC(C)C(C)C3=O (single isomer, unassigned; (-)) [(−)-7] | <1 | <1.2 | – | <32 | – | – |
| CCCc1cc(=O)oc2c3c(c4c(c12)OC(C)(C)C=C4)OC(C)(C)C(C)C3=O (racemic) [(±)-15b, (±)-10,11-Dihydro-6,6,10,10,11-pentamethyl-4-propyl-2H, 6H, 12H-benzo[1,2-b:3,4-b′:5,6-b″]tripyran-2,12-dione] | <1 | <3 | <3 | <31 | – | – |
| CCCc1cc(=O)oc2c(C(=O)[C@H](C)[C@@H](C)OC(C)=O)c(O)c3c(c12)OC(C)(C)C=C3 [(+)-10, 6,6Dimethyl-9-hydroxy-10-[2(R)-methyl-3(R)-acetoxybutyro]-4-propyl-2H,6H-benzo-[1,2-b:3,4-b′]dipyran-2-one] | – | – | – | – | 11 | – |
| CCCc1cc(=O)oc2c3c(c4c(c12)OC(C)(C)C=C4)O[C@H](C)[C@H](C)C3=O [(+)-7a] | <3 | <3 | – | 153^d | – | – |
| CCCc1cc(=O)oc2c3c(c4c(c12)OC(C)(C)C=C4)OC(C(C)C)C(C)C3=O (racemic) [(+)-15e] | <1 | <4 | <1 | <8.6 | – | – |
| CCCc1cc(=O)oc2c3c(c4c(c12)OC(C)(C)C=C4)OC(C)(C)C(C)C3O (racemic) [(±)-16d, (±)-11,12-trans-10,11-dihydro-12-hydroxy-6,6,10,10,11-pentamethyl-4-propyl-2H,6H,12H-benzo [1,2-b:3,4-b′:5,6-b″]tripyran-2-one] | – | – | – | – | 4 | – |
| CCCc1cc(=O)oc2c(C(=O)[C@@H](C)[C@@H](C)O)c(O)c3c(c12)OC(C)(C)C=C3 (relative stereo) [(±)-8a, 6,6-Dimethyl-9-hydroxy-10-[2(S*)-methyl-3(R*)-hydroxybutyro-]4-propyl-2H,6H-benzo[1,2-b:3,4b′]dipyran-2-one] | – | – | – | – | 4 | – |
| CCCc1cc(=O)oc2c3c(c4c(c12)OC(C)(C)C=C4)OC(CC)C(C)C3O (racemic) [(±)-16e, (±)-10,11-trans-11,12-cis-10,11-Dihydro-10-ethyl-12-hydroxy-4-propyl-6,6,11-trimethyl-2H,6H,12H-benzo [1,2-b:3,4-b′:5,6-b″]tripyran-2-one] | – | – | – | – | 8 | – |
| CCCc1cc(=O)oc2c3c(c4c(c12)OC(C)(C)C=C4)OC(CC)C(C)C3O (racemic) [(±)-16f, (±)-10,11-qrans-11,12-trans-10,11-dihydro-10-ethyl-12-hydroxy4-propyl-6,6,11-trimethyl-2H,6H,12H-benzo [1,2-b:3,4-b′:5,6-b″]tripyran-2-one] | – | – | – | – | 9 | – |
| CCCc1cc(=O)oc2c3c(c4c(c12)OC(C)(C)CC4)OC(C)C(C)C3O (single isomer, unassigned; (-)) [(−)-23] | – | <5 | <4 | 97 | – | TI ([1]; isolate AD169): 3.2; TI ([1]; isolate C9208): 3.3; TI ([1]; isolate Coffman): <32; TI ([1]; isolate E. Mann): 3.2; TI ([1]; isolate Towne): 3.2 |
| CCCc1cc(=O)oc2c3c(c4c(c12)OC(C)(C)C=C4)O[C@H](C)[C@@H](C)[C@@H]3O [(+)-1, (+)-Calanolide A] | <1 | <4 | – | <67 | – | – |
| CC1Oc2c3c(c4c(-c5ccccc5)cc(=O)oc4c2C(O)C1C)OC(C)(C)C=C3 (single isomer, unassigned; (-)) [(−)-24] | <1 | <4 | <3 | <15 | – | – |
| CCCc1cc(=O)oc2c3c(c4c(c12)OC(C)(C)C=C4)O[C@@H](C)[C@H](C)[C@@H]3O [(−)-calanolide B, (-)-Calanolide B] | <1 | 30 | <5 | <100 | – | TI ([1]; isolate AD169): 3.2; TI ([1]; isolate C9208): 3.3; TI ([1]; isolate Coffman): <31; TI ([1]; isolate E. Mann): 3.2; TI ([1]; isolate Towne): <31 |
| CCCc1cc(=O)oc2c(C(=O)[C@@H](C)[C@H](C)O)c(O)c3c(c12)OC(C)(C)C=C3 (relative stereo) [(±)-8b, 6,6-Dimethyl-9-hydroxy-10-12(S*)-methyl-3(S*)-hydroxybutyro]4-propyl-2H,6H-benzo[1,2-b:3,4-b′]dipyran-2-one] | – | – | – | – | 9 | – |
| CCCc1cc(=O)oc2c3c(c4c(c12)OC(C)(C)C=C4)O[C@@H](C)[C@H](C)[C@H]3O [(−)-1, (-)-Calanolide A] | <1 | <4 | – | <6 | – | – |
| CCCc1cc(=O)oc2c3c(c4c(c12)OC(C)(C)CC4)OC(C)C(C)C3=O (single isomer, unassigned; (+)) [(+)-18a] | <1 | <1 | <1 | 1 | – | – |

Marks after values point to notes of the source that are not given here.
